Sequences of proteins named here, by UniProt entry; tags and fusion partners are left off.
UniProt Q8I6Z5, whole entry: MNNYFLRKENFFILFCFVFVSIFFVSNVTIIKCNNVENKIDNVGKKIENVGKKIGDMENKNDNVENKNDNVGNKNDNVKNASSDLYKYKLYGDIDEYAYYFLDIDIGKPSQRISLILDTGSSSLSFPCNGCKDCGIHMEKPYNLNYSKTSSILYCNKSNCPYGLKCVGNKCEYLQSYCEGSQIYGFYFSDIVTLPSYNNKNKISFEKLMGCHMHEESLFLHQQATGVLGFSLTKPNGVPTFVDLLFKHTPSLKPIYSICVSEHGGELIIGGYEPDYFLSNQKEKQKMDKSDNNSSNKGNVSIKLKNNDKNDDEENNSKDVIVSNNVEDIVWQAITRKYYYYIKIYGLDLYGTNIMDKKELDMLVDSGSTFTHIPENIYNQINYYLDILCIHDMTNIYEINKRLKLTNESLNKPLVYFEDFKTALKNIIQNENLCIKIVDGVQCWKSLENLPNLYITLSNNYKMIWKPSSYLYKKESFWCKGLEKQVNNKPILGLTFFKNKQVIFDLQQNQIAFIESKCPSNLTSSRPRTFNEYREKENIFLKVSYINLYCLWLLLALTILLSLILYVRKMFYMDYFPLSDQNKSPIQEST

According to publication PMC4643876, “Picomolar Inhibition of Plasmepsin V, an Essential Malaria Protease, Achieved Exploiting the Prime Region” (PLoS ONE, 2015):

Target: Plasmepsin V (PmV) (Plasmodium falciparum, UniProt Q8I6Z5)
Assay: PmV inhibition, fluorimetric PExEl cleavage assay
Type: biochemical
Settings: Activity; for IC50: read-out: IC50 nM

SMILES | pIC50 | IC50 [nM]
CC(C)C[C@H](NC(=O)[C@@H](N)CCCNC(=N)N)C(=O)N[C@@H](CC(C)C)C(O)CN[C@@H](C)C(=O)N[C@@H](CCC(=O)O)C(N)=O (stereo partly drawn) | 9.38 | 
CC(C)C[C@H](NC(=O)[C@@H](N)Cc1c[nH]c2ccccc12)C(=O)N[C@@H](CC(C)C)[C@@H](O)CN[C@@H](Cc1ccc(O)cc1)C(=O)N[C@@H](CCC(N)=O)C(=O)N[C@@H](C)C(N)=O | 5.90 | 
CC[C@H](C)[C@H](NC(=O)[C@@H](N)CCCNC(=N)N)C(=O)N[C@@H](CC(C)C)C(O)CN[C@@H](C)C(=O)N[C@@H](CCC(=O)O)C(=O)N[C@@H](C)C(=O)O (stereo partly drawn) | 8.66 | 
CC(=O)N[C@@H](CCCNC(=N)N)C(=O)N[C@@H](CC(C)C)C(=O)N[C@@H](CC(C)C)C(O)CN[C@@H](C)C(=O)N[C@@H](CCC(N)=O)C(=O)N[C@@H](C)C(N)=O (stereo partly drawn) | 6.93 | 
CC(C)C[C@H](NC(=O)[C@@H](N)CCCNC(=N)N)C(=O)N[C@@H](CC(C)C)[C@@H](O)CN[C@@H](Cc1ccc(O)cc1)C(=O)N[C@@H](CCC(=O)O)C(=O)N[C@@H](C)C(N)=O | 8.86 | 
CC(C)C[C@H](NC(=O)[C@@H](N)Cc1c[nH]c2ccccc12)C(=O)N[C@@H](CC(C)C)[C@@H](O)CN[C@@H](C)C(=O)N[C@@H](CCC(=O)O)C(=O)N[C@@H](C)C(N)=O | 5.59 | 
CC(C)C[C@H](NC(=O)[C@@H](N)Cc1ccc(O)cc1)C(=O)N[C@@H](CC(C)C)[C@@H](O)CN[C@@H](C)C(=O)N[C@@H](CCC(=O)O)C(=O)N[C@@H](C)C(N)=O | 5.33 | 
CC(C)C[C@H](NC(=O)[C@@H](N)CCCNC(=N)N)C(=O)N[C@@H](CC(C)C)[C@@H](O)CN[C@@H](Cc1ccc(O)cc1)C(=O)N[C@@H](CCC(=O)O)C(N)=O | 8.74 | 
CC(C)C[C@H](NC(=O)[C@@H](N)Cc1cnc[nH]1)C(=O)N[C@@H](CC(C)C)[C@@H](O)CN[C@@H](C)C(=O)N[C@@H](CCC(=O)O)C(=O)N[C@@H](C)C(N)=O | 5.77 | 
CC(C)C[C@H](NC(=O)[C@@H](N)CCCNC(=N)N)C(=O)N[C@@H](CC(C)C)C(O)CN[C@@H](C)C(=O)N[C@@H](CCC(=O)O)C(=O)N[C@@H](C)C(=O)O (stereo partly drawn) | 8.88 | 
CC(C)C[C@H](NC(=O)[C@@H](N)Cc1cnc[nH]1)C(=O)N[C@@H](CC(C)C)[C@@H](O)CN[C@@H](Cc1ccc(O)cc1)C(=O)N[C@@H](CCC(N)=O)C(=O)N[C@@H](C)C(N)=O | 5.09 | 
CC(C)C[C@H](NC(=O)[C@@H](N)Cc1ccc(O)cc1)C(=O)N[C@@H](CC(C)C)[C@H](O)CN[C@@H](C)C(=O)N[C@@H](CCC(=O)O)C(=O)N[C@@H](C)C(N)=O | 4.72 | 19100
CC(C)C[C@H](NC(=O)[C@@H](N)Cc1cnc[nH]1)C(=O)N[C@@H](CC(C)C)[C@H](O)CN[C@@H](C)C(=O)N[C@@H](CCC(=O)O)C(=O)N[C@@H](C)C(N)=O | 5.13 | 7470
CC(C)C[C@H](NC(=O)[C@@H](N)Cc1c[nH]c2ccccc12)C(=O)N[C@@H](CC(C)C)[C@@H](O)CN[C@@H](C)C(=O)N[C@@H](CCC(N)=O)C(=O)N[C@@H](C)C(N)=O | 5.29 | 
CC(C)C[C@H](NC(=O)[C@@H](N)CCCCN)C(=O)N[C@@H](CC(C)C)[C@@H](O)CN[C@@H](C)C(=O)N[C@@H](CCC(=O)O)C(=O)N[C@@H](C)C(N)=O | 6.12 | 
CC(C)C[C@H](NC(=O)[C@@H](N)CCCNC(=N)N)C(=O)N[C@@H](CC(C)C)[C@H](O)CN[C@@H](Cc1ccc(O)cc1)C(=O)N[C@@H](CCC(=O)O)C(N)=O | 7.49 | 
